Results of unrelated studies side by side (data: NIAID ChemDB).

All rows: tests in culture; species: Mycobacterium avium intracellulare

Rows are shuffled and stem from different studies.

{"SMILES": "CC[C@H]1OC(=O)[C@H](C)[C@@H](O[C@H]2C[C@@](C)(OC)[C@@H](O)[C@H](C)O2)[C@H](C)[C@@H](O[C@@H]2O[C@H](C)C[C@H](N(C)C)[C@H]2O)[C@](C)(OC)C[C@@H](C)C(=O)[C@H](C)[C@@H](O)[C@]1(C)O", "measure": "MIC", "strain or isolate": "N-486 (HIV-)", "value": "2 µg/mL"}
{"SMILES": "CC[C@H]1OC(=O)[C@H](C)[C@@H](OC2C[C@@](C)(OC)[C@@H](O)[C@H](C)O2)[C@H](C)[C@@H](O[C@@H]2O[C@H](C)C[C@H](N(C)C)[C@H]2O)C(C)(O)C[C@@H](C)/C(=N\\OCCCc2ccccc2)[C@H](C)[C@@H](O)[C@]1(C)O", "measure": "MIC", "strain or isolate": "20066 (clarithromycin-susceptible)", "value": "1.56 µg/mL"}
{"SMILES": "CCCCCCO/N=C1\\[C@H](C)CC(C)(O)[C@H](O[C@@H]2O[C@H](C)C[C@H](N(C)C)[C@H]2O)[C@@H](C)[C@H](OC2C[C@@](C)(OC)[C@@H](O)[C@H](C)O2)[C@@H](C)C(=O)O[C@H](CC)[C@@](C)(O)[C@H](O)[C@H]1C", "measure": "MIC", "strain or isolate": "20066", "value": "3.13 µg/mL"}
{"SMILES": "COc1ccc2c(c1)N(C[C@H](C)CN(C)C)c1ccccc1S2", "measure": "MIC", "strain or isolate": "R 8656", "value": "25 µg/mL"}
{"SMILES": "CC[C@H]1OC(=O)[C@H](C)[C@@H](O[C@H]2C[C@@](C)(OC)[C@@H](OC(C)=O)[C@H](C)O2)[C@H](C)[C@@H](O[C@@H]2O[C@H](C)C[C@H](N(C)C)[C@H]2OC(=O)NN)C(C)(O)C[C@@H](C)/C(=N\\OCCCC2CCCCC2)[C@H](C)[C@@H](O)[C@]1(C)O", "measure": "MIC", "strain or isolate": "20066 (clarithromycin-susceptible)", "value": "3.13 µg/mL"}
{"SMILES": "OCCN1CCN(CC/C=C2\\c3ccccc3Sc3ccc(C(F)(F)F)cc32)CC1", "measure": "MIC", "strain or isolate": "ATCC 23432", "value": "6.25 µg/mL"}
{"SMILES": "COc1c(O)c2c(=O)cc(OC)c3c4c(OC)cc(=O)c5c(O)c(OC)c6c(c(c1CC(C)(O)C6C(C)=O)c23)c54", "measure": "MBC", "value": ">100 µg/mL"}
{"SMILES": "CCN(CC)C(=O)Oc1c(OC)cc2ccnc3c2c1N(C)C=C3", "measure": "EC50", "value": ">15 µg/mL"}
{"SMILES": "CCCO/N=C1\\[C@H](C)CC(C)(O)[C@H](O[C@@H]2O[C@H](C)C[C@H](N(C)C)[C@H]2O)[C@@H](C)[C@H](OC2C[C@@](C)(OC)[C@@H](O)[C@H](C)O2)[C@@H](C)C(=O)O[C@H](CC)[C@@](C)(O)[C@H](O)[C@H]1C", "measure": "MIC", "strain or isolate": "20066", "value": "3.13 µg/mL"}
{"SMILES": "CC(C)N=c1cc2n(-c3ccc(Cl)cc3)c3ccccc3nc-2cc1Nc1ccc(Cl)cc1", "measure": "MIC", "strain or isolate": "P39", "value": "5 µg/mL"}
{"SMILES": "CO[C@H]1/C=C/O[C@@]2(C)Oc3c(C)c(O)c4c(=O)c(c5oc6cc(N7CCN(CC(C)C)CC7)cc(=O)c6nc5c4c3=C2O)NC(=O)/C(C)=C\\C=C\\[C@H](C)[C@H](O)[C@@H](C)[C@@H](O)[C@@H](C)[C@H](OC(C)=O)[C@@H]1C", "measure": "MIC", "strain or isolate": "N-481 (HIV-)", "value": "0.0313 µg/mL"}
{"SMILES": "CC(C)(C)OCOC(=O)c1cnccn1", "measure": "MIC", "strain or isolate": "ATCC 13950", "value": "100 µg/mL"}
{"SMILES": "CC[C@H]1OC(=O)[C@H](C)[C@@H](O)[C@H](C)[C@@H](O[C@@H]2O[C@H](C)C[C@H](N(C)C)[C@H]2O)C(C)(O)C[C@@H](C)/C(=N\\OCCCOc2ccccc2)[C@H](C)[C@@H](O)[C@]1(C)O", "measure": "MIC", "strain or isolate": "20066 (clarithromycin-susceptible)", "value": ">50 µg/mL"}
{"SMILES": "NC[C@H]1O[C@H](O[C@H]2[C@H](O)[C@@H](O[C@H]3O[C@H](CO)[C@@H](O)[C@H](N)[C@H]3O)[C@H](N)C[C@@H]2N)[C@H](O)[C@@H](O)[C@@H]1O", "measure": "MIC", "strain or isolate": "CIPT 140310001", "value": "10 µg/mL"}
{"SMILES": "CC[C@H]1OC(=O)[C@H](C)[C@@H](O[C@H]2C[C@@](C)(OC)[C@@H](O)[C@H](C)O2)[C@H](C)[C@@H](O[C@@H]2O[C@H](C)C[C@H](N(C)C)[C@H]2O)[C@](C)(OC)C[C@@H](C)C(=O)[C@H](C)[C@@H](O)[C@]1(C)O", "measure": "MIC", "strain or isolate": "N-260", "value": "6.25 µg/mL"}
{"SMILES": "CC[C@H](C)C(=O)Oc1ccc([C@H]2O[C@@H]2C)cc1", "measure": "MIC", "value": "10.68 µg/mL"}
{"SMILES": "COc1cc2ccnc3c2c(c1OC(=O)c1ccc(F)c(F)c1)N(C)C=C3", "measure": "EC50", "value": "5.5 µg/mL"}
{"SMILES": "CCNC(=O)[C@@H](NC(=O)Cc1ccccc1)[C@@H]1N[C@@H](C(=O)NCCNC(=O)[C@@H]2N[C@@H]([C@H](NC(=O)Cc3ccccc3)C(=O)NCC)SC2(C)C)C(C)(C)S1", "measure": "MIC", "strain or isolate": "CIPT 140310023", "value": "25 µg/mL"}
{"SMILES": "CO[C@H]1/C=C/O[C@@]2(C)Oc3c(C)c(O)c4c(O)c(c5c(c4c3C2=O)NC2(CCN(CC(C)C)CC2)N=5)=NC(=O)/C(C)=C\\C=C\\[C@H](C)[C@H](O)[C@@H](C)[C@@H](O)[C@@H](C)[C@H](OC(C)=O)[C@@H]1C", "measure": "MIC", "strain or isolate": "N-551 (HIV-)", "value": "0.4 µg/mL"}
{"SMILES": "CC[C@H]1OC(=O)[C@H](C)[C@@H](OC2C[C@@](C)(OC)[C@@H](O)[C@H](C)O2)[C@H](C)[C@@H](O[C@@H]2O[C@H](C)C[C@H](N(C)C)[C@H]2O)C(C)(O)C[C@@H](C)/C(=N\\OCCC2CCCCC2)[C@H](C)[C@@H](O)[C@]1(C)O", "measure": "MIC", "strain or isolate": "20066", "value": "6.25 µg/mL"}
{"SMILES": "C[C@@H](O)[C@H]1C(=O)N2C(C(=O)O)=C(SCCN=CN)C[C@H]12", "measure": "MIC", "strain or isolate": "CIPT 140310001", "value": "2 µg/mL"}
{"SMILES": "CC[C@H]1OC(=O)[C@H](C)[C@@H](OC(=O)c2ccccc2)[C@H](C)[C@@H](O[C@@H]2O[C@H](C)C[C@H](N(C)C)[C@H]2O)C(C)(O)C[C@@H](C)/C(=N\\OCCCOc2ccccc2)[C@H](C)[C@@H](O)[C@]1(C)O", "measure": "MIC", "strain or isolate": "20066 (clarithromycin-susceptible)", "value": "6.25 µg/mL"}
{"SMILES": "C[C@@H]1CN(c2c(F)c(N)c3c(=O)c(C(=O)O)cn(C4CC4)c3c2F)C[C@H](C)N1", "measure": "MIC", "strain or isolate": "N-499 (HIV-)", "value": "2 µg/mL"}
{"SMILES": "CN(C)CCCN1c2ccccc2Sc2ccc(Cl)cc21", "measure": "MIC", "strain or isolate": "R 7313", "value": "25 µg/mL"}
{"SMILES": "CCCCCCCC/C=C/CCCCCCCCC(=O)Oc1c(OC)cc2ccnc3c2c1N(C)C=C3", "measure": "EC50", "value": "0.2 µg/mL"}
{"SMILES": "CC[C@H]1OC(=O)[C@H](C)[C@@H](OC2C[C@@](C)(OC)[C@@H](O)[C@H](C)O2)[C@H](C)[C@@H](O[C@@H]2O[C@H](C)C[C@H](N(C)C)[C@H]2O)C(C)(O)C[C@@H](C)/C(=N\\OCCCCc2ccccc2)[C@H](C)[C@@H](O)[C@]1(C)O", "measure": "MIC", "strain or isolate": "20066 (clarithromycin-susceptible)", "value": "1.56 µg/mL"}
{"SMILES": "NC(=O)c1cnccn1", "measure": "MIC", "strain or isolate": "ATCC 13950", "value": ">200 µg/mL"}
{"SMILES": "CO[C@H]1/C=C/O[C@@]2(C)Oc3c(C)c(O)c4c(O)c(c5c(c4c3C2=O)NC2(CCN(CC(C)C)CC2)N=5)=NC(=O)/C(C)=C\\C=C\\[C@H](C)[C@H](O)[C@@H](C)[C@@H](O)[C@@H](C)[C@H](OC(C)=O)[C@@H]1C", "measure": "MIC", "strain or isolate": "16-Feb", "value": "0.25 µg/mL"}
{"SMILES": "CC[C@H]1OC(=O)[C@H](C)[C@@H](O[C@H]2C[C@@](C)(OC)[C@@H](OC(C)=O)[C@H](C)O2)[C@H](C)[C@@H](O[C@@H]2O[C@H](C)C[C@H](N(C)C)[C@H]2OC(=O)NNc2ccccc2)C(C)(O)C[C@@H](C)/C(=N\\OCCCC2CCCCC2)[C@H](C)[C@@H](O)[C@]1(C)O", "measure": "MIC", "strain or isolate": "20066 (clarithromycin-susceptible)", "value": "≤0.2 µg/mL"}
{"SMILES": "C=CCc1ccc(OC(=O)/C(C)=C/C)cc1", "measure": "MIC", "strain or isolate": "ATCC 19709", "value": "10 µg/mL"}
{"SMILES": "COc1cc2ccnc3c2c(c1OC(=O)c1ccc(C)cc1)N(C)C=C3", "measure": "EC50", "value": "1 µg/mL"}
{"SMILES": "COc1c(N2CCNC(C)C2)c(F)cc2c(=O)c(C(=O)O)cn(C3CC3)c12", "measure": "MIC90", "strain or isolate": "31 strains", "value": "12.5 µg/mL"}
{"SMILES": "CCCCCCCCCCCCNNC(=O)O[C@H]1[C@H](O[C@@H]2[C@@H](C)[C@H](O[C@H]3C[C@@](C)(OC)[C@@H](OC(C)=O)[C@H](C)O3)[C@@H](C)C(=O)O[C@H](CC)[C@@](C)(O)[C@H](O)[C@@H](C)/C(=N/OCCCC3CCCCC3)[C@H](C)CC2(C)O)O[C@H](C)C[C@@H]1N(C)C", "measure": "MIC", "strain or isolate": "20066 (clarithromycin-susceptible)", "value": "50 µg/mL"}
{"SMILES": "Cc1onc(-c2ccccc2Cl)c1C(=O)N[C@@H]1C(=O)N2[C@@H]1SC(C)(C)[C@@H]2C(=O)O", "measure": "MIC", "strain or isolate": "CIPT 140310031", "value": "75 µg/mL"}
{"SMILES": "C/C=C(/C)C(=O)Oc1ccc(OC)cc1C1OC1C", "measure": "EC50", "strain or isolate": "ATCC 19709", "value": "2.5 µg/mL"}
{"SMILES": "CCCCc1ccc(C(=O)Oc2c(OC)cc3ccnc4c3c2N(C)C=C4)cc1", "measure": "EC50", "value": "0.5 µg/mL"}
{"SMILES": "CC[C@H]1OC(=O)[C@H](C)[C@@H](OC2C[C@@](C)(OC)[C@@H](O)[C@H](C)O2)[C@H](C)[C@@H](O[C@@H]2O[C@H](C)C[C@H](N(C)C)[C@H]2O)C(C)(OC)C[C@@H](C)/C(=N\\OCCCOc2ccccc2)[C@H](C)[C@@H](O)[C@]1(C)O", "measure": "MIC", "strain or isolate": "20066", "value": "3.13 µg/mL"}
{"SMILES": "COc1cc2ccnc3c2c(c1OC(=O)c1ccc(C(C)(C)C)cc1)N(C)C=C3", "measure": "MIC", "value": "1.3 µg/mL"}
{"SMILES": "CC[C@H]1OC(=O)[C@H](C)[C@@H](O[C@H]2C[C@@](C)(OC)[C@@H](OC(C)=O)[C@H](C)O2)[C@H](C)[C@@H](O[C@@H]2O[C@H](C)C[C@H](N(C)C)[C@H]2OC(=O)NNCCCCCc2ccccc2)C(C)(O)C[C@@H](C)/C(=N\\OCCCC2CCCCC2)[C@H](C)[C@@H](O)[C@]1(C)O", "measure": "MIC", "strain or isolate": "20066 (clarithromycin-susceptible)", "value": "3.13 µg/mL"}
{"SMILES": "COc1cc2ccnc3c2c(c1OC(=O)N1CCCC1)N(C)C=C3", "measure": "EC50", "value": ">15 µg/mL"}
{"SMILES": "CC(=O)NC[C@H]1CN(c2ccc(N3CCN(c4ccc([N+](=O)[O-])s4)CC3)c(F)c2)C(=O)O1", "measure": "MIC", "strain or isolate": "F21/12", "value": "0.25 µg/mL"}
{"SMILES": "OCCN1CCN(CCC=C2c3ccccc3Sc3ccc(Cl)cc32)CC1", "measure": "MIC", "strain or isolate": "R 8411", "value": "25 µg/mL"}

5 of the rows above, restated:

SMILES	measure	strain or isolate	value
CC[C@H]1OC(=O)[C@H](C)[C@@H](O[C@H]2C[C@@](C)(OC)[C@@H](OC(C)=O)[C@H](C)O2)[C@H](C)[C@@H](O[C@@H]2O[C@H](C)C[C@H](N(C)C)[C@H]2OC(=O)NNc2ccccc2)C(C)(O)C[C@@H](C)/C(=N\OCCCC2CCCCC2)[C@H](C)[C@@H](O)[C@]1(C)O	MIC	20066 (clarithromycin-susceptible)	≤0.2 µg/mL
CC[C@H]1OC(=O)[C@H](C)[C@@H](O[C@H]2C[C@@](C)(OC)[C@@H](O)[C@H](C)O2)[C@H](C)[C@@H](O[C@@H]2O[C@H](C)C[C@H](N(C)C)[C@H]2O)[C@](C)(OC)C[C@@H](C)C(=O)[C@H](C)[C@@H](O)[C@]1(C)O	MIC	N-260	6.25 µg/mL
CCCCCCCCCCCCNNC(=O)O[C@H]1[C@H](O[C@@H]2[C@@H](C)[C@H](O[C@H]3C[C@@](C)(OC)[C@@H](OC(C)=O)[C@H](C)O3)[C@@H](C)C(=O)O[C@H](CC)[C@@](C)(O)[C@H](O)[C@@H](C)/C(=N/OCCCC3CCCCC3)[C@H](C)CC2(C)O)O[C@H](C)C[C@@H]1N(C)C	MIC	20066 (clarithromycin-susceptible)	50 µg/mL
CCCCc1ccc(C(=O)Oc2c(OC)cc3ccnc4c3c2N(C)C=C4)cc1	EC50	-	0.5 µg/mL
CC[C@H]1OC(=O)[C@H](C)[C@@H](O[C@H]2C[C@@](C)(OC)[C@@H](O)[C@H](C)O2)[C@H](C)[C@@H](O[C@@H]2O[C@H](C)C[C@H](N(C)C)[C@H]2O)[C@](C)(OC)C[C@@H](C)C(=O)[C@H](C)[C@@H](O)[C@]1(C)O	MIC	N-486 (HIV-)	2 µg/mL

ECn: concentration that inhibits the pathogen or its effect by n%. A number after MIC or MFC names an inhibition level or a share of isolates. Blank or dashed fields: not listed here.